Assays:
[1] = test system: human lysozyme; test: Lysozyme inhibition assay of GST-Tp17 mutants; type: biochemical; conditions: 2 units human lysozyme; 45 min 37° C
[2] = target: T1, lysozyme (Homo sapiens, UniProt P61626); test: Lysozyme binding of GST-Tp17 mutants (blot, FIG. 36)
T1 sequence (P61626 19-148): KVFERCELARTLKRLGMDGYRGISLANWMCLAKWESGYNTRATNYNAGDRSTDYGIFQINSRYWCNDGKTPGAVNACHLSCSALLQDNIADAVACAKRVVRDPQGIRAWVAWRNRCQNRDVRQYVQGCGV

B1: H31A (protein)
chain: MSPILGYWKIKGLVQPTRLLLEYLEEKYEEHLYERDEGDKWRDKKFELGLEFPNLPYYIDGDVKLTQSMAIIRYIADKHNMLGGCPKERAEISMLEGAVLDIRYGVSRIAYSKDFETLKVDFLSKLPEMLKMFEDRLCHKTYLNGDHVTHPDFMLYDALDVVLYMDPMCLDAFPKLVCFKKRIEAIPQIDKYLKSSKYIAWPLQGWQATFGGGDHPPKSDLVPRGSCVSCTTVCPAAGKAKAEKVECALKGGIFRGTLPAADCPGIDTTVTFNADGTAQKVELALEKKSAPSPLTYRGTWMVREDGIVELSLVSSEQSKAPHEKELYELIDSNSVRYMGAPGAGKPSKEMAPFYVLKKTKK
lysozyme inhibition relative to wild-type Tp17 [1]: decrease in lysozyme inhibition
ability to bind lysozyme [2]: retained their ability to bind lysozyme
